# Results of single-concentration screens

Source: ChEMBL document CHEMBL3988442, “University of Dundee, Small-Polar-MMV Screening Library” (2021).

Mtb cholesterol medium: 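Whole-cell growth test on Mycobacterium tuberculosis, read after 4 days in a medium based on cholesterol and the lipid DPPC; the read-out is not stated. Tested at 50 µM. The record gives no direction; compounds that gave an IC50 in retests scored well above the rest, so higher reads as more growth inhibition. About 69,000 compounds were tested under these conditions; 0.54% (about 370) showed 50% or more at least once.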
Mtb glucose medium: 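Whole-cell growth test on Mycobacterium tuberculosis, read after 3 days in glucose-containing 7H9 medium; the read-out is not stated. Tested at 50 µM. Higher reads as more growth inhibition (inferred: compounds with an IC50 in retests scored well above the rest). Size under these conditions: about 69,000 compounds, about 760 of them at 50% or above in at least one test.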

Results are given as percent effect. The controls that fix the scale are not given in the record; negative values are as filed. The entries come from a sample that favours strong results. Two or more numbers in one place are separate tests of the same structure; such repeats can differ widely. A dash means the value is not listed here; it may have been measured.

compound,Mtb cholesterol medium,Mtb glucose medium
CCOc1cccc(CNc2cncc(-n3cccn3)n2)c1,26.38%,31.08%
Cc1c(C(=O)NC2CCCOC2)nnn1-c1ccccc1 (stereo not drawn),-3.595%,-12.39%
O=C(NCCSCc1ccco1)c1ccc(N2CCOCC2)cc1,-,5.63% and 9.511%
O=S(=O)(C/C=C/c1ccccc1)Cc1nc(C2CC2)no1,29.73% and 16.66%,14.21% and 18.34%
c1ccc(C(NCc2nnc(-c3ccco3)o2)C2CCC2)cc1 (stereo not drawn),-,52.25%
CCc1ncc(CN(C)C2CCN(C(C)C)CC2)cn1.O=C(O)CC(O)(CC(=O)O)C(=O)O,-3.957%,-8.711%
CC(C)(C)c1ncc(C(=O)NCCNC(=O)c2cccs2)s1,-,-33.5%
c1nc(CCNc2nc(C3CC3)nc3c2CCNCC3)c[nH]1,-,21.08% and 15.54%
CC(C)c1nc(N2CCC(N3CCCCCC3)CC2)c2cnn(C)c2n1,-,53.65%
CCCc1nn(Cc2ccc(Br)s2)c(=O)o1,73.39%,56.33%
Cc1ccc(C(=O)N2CCCC(Nc3ccc(F)cc3)C2)cc1 (stereo not drawn),26.34% and 51.18%,-
Cc1nc(N2Cc3cnn(Cc4ccc(F)cc4)c3C2)no1,7.412% and -23.55%,-
CCSc1ncc(CN2CCN(c3ccc(C#N)cc3)C(=O)C2)cn1,-3.329%,-
CCc1noc(C)c1C(=O)NCc1ccccn1,-16.86%,4.974% and -18.55%
COc1cccc2c1CCCCN2C(=O)c1oc(C)nc1C,72.92%,-
OCCN1CCN(Cc2cc3c(cc2Br)OCCO3)CC1,-3.164%,-24.33% and -4.841%
CN(CC(N)=O)S(=O)(=O)c1ccc(F)cc1F,-,21.56%
CC1CCC(O)(CSc2nnnn2C2CC2)CC1 (stereo not drawn),-,50.11%
c1cncc(-c2ccc3c(c2)CCC32CCNCC2)c1,23.37%,25.51% and 53.06%
CCCc1nc(N2CC[C@@H](c3ccc4ccccc4c3)[C@H](O)C2)no1,-4.421%,-
Cc1nc(CN2CCc3nc(NC(C)C)nc(C)c3C2)cs1,-,49.25% and 35.45%
O=C(O)CC(O)(CC(=O)O)C(=O)O.[H][C@@]12CC[C@@](O)(c3ccccn3)[C@]1([H])CN(Cc1cccc(Cl)c1Cl)C2,-,28.5%
CCN(Cc1cc(F)c(OC)c(Cl)c1)Cc1noc(CC(C)C)n1,-,59.58%
CCCn1nnnc1CN(c1ccc(C)cc1)C(C)C,-,-18.17%
N[C@@H]1CCN(Cc2cc(-c3ccccc3OC(F)(F)F)no2)C[C@H]1O,-,29.44%
Cc1ccc(-c2n[nH]cc2CNCC2CCN(CC(F)(F)F)C2)o1.Cl (stereo not drawn),-5.182%,17.92% and 9.944%
CS(=O)(=O)NC1CCN(C(=O)c2cc3ccccc3s2)C1 (stereo not drawn),-,-1.393% and 3.717%
COc1cccn(CC(=O)N(C)CCC2CCOCC2)c1=O,100.4%,-
Cc1ccc(-c2cc(CNC(=O)NC3CCCCNC3=O)on2)cc1 (stereo not drawn),7.711%,-
Cc1ccc(NC2CCCN(CCc3ccccc3)C2)nn1 (stereo not drawn),-20.01% and -10.89%,-31.9%
Cc1nc(C2CCCN2C(=O)CCCOc2cccc(F)c2)no1 (stereo not drawn),3.083% and -42.32%,-
[H][C@]12CC[C@]([H])(CN(S(=O)(=O)c3cccnc3)C1)N(Cc1ccccc1)C2,-,-1.052%
COc1cccc(-c2cccc(N3CCC(N[C@@H]4CCOC4)CC3)c2)c1,47.53%,57.44%
O=C(NCCO)Nc1ccc(Br)c(F)c1,-,-8.339% and 0.4025%
O=S(=O)(CCc1ccccc1)Cc1nc(C2CC2)no1,47.63% and 60.13%,51.75% and 54.9%
CSC1=Nc2c(cnn2-c2ccc(Cl)cc2)C2=NCCCN12,45.46%,37.43%
Cc1ccccc1-c1noc(C2CC(C(C)C)=NO2)n1 (stereo not drawn),-,41.66%
CCc1ccc(C(=O)O)cc1S(=O)(=O)Nc1ccc2c(c1)OCCO2,3.597%,12.6%
CC(C)Cc1ncc2c(n1)CN(c1nccc(N(C)C)n1)C2,-,-83.81% and -1.8%
O=C(NCCNC(=O)c1ccc(Cl)cc1)NCCn1cccc1,14.96%,26.52%
Cc1cccc(N(CC(=O)N2CCCCC2)Cc2nc(=O)[nH][nH]2)c1,-,21.04%
Cc1ccccc1-n1cc(-c2ccnc(N3CCCC(O)C3)n2)cn1 (stereo not drawn),-,7.994% and 15.59%
COc1ccc(CNC(Cc2ccsc2)c2ncccc2C)cc1OC (stereo not drawn),-,21.16%
O=C(c1ccc(-n2cccn2)nc1)N1CCCN(c2cccnn2)CC1,6.166%,-6.736%
CCOc1c(F)cccc1C(=O)N(C)CCn1cccn1,-,3.592% and 10.6%
Cc1sc(Br)cc1S(=O)(=O)NCCN.Cl,-,54.13%
COc1ccc(-n2nnc(C(=O)NCC3CCCCC3)n2)cc1,-,9.636% and 17.09%
CCC(CO)Nc1nc(C(F)F)nc2ccccc12 (stereo not drawn),-2.217%,-
COc1cc(CN2CCCC2)ccc1OC12CCCN(CC1)C2 (stereo not drawn),-13.04%,23.6%
CCc1cc(=O)[nH]c(-n2nc(C3CC3)cc2NC(=O)C2CC2)n1,42.71%,72.3%
O=C(c1cc(C2CC2)on1)N1CCC(Oc2ncccc2Br)CC1,-,34.07% and 52.9%
COc1ccc(CN2C[C@@H](CN(C)C)[C@@H](CO)C2)c(Cl)c1OC,-,-13.34%
Cc1ccc(-n2ncc3c2CCCC3N)cc1C (stereo not drawn),-,22.83%

The first 3 entries again:

| compound | Mtb cholesterol medium | Mtb glucose medium |
|---|---|---|
| `CCOc1cccc(CNc2cncc(-n3cccn3)n2)c1` | 26.38% | 31.08% |
| `Cc1c(C(=O)NC2CCCOC2)nnn1-c1ccccc1` (stereo not drawn) | -3.595% | -12.39% |
| `O=C(NCCSCc1ccco1)c1ccc(N2CCOCC2)cc1` | - | 5.63% and 9.511% |